Results as given in patent publication EP4821928A1, “BICYCLIC HETEROCYCLIC COMPOUND AND FUNGICIDE FOR AGRICULTURAL AND HORTICULTURAL USE CONTAINING SAME AS ACTIVE INGREDIENT” (dated 2026).

Key:
[1] = tested on: Speckled leaf blotch fungus (Septoria tritici); assay: Speckled leaf blotch anti-germ test (Test Example F); conditions: for Speckled leaf blotch anti-germ test (rate of inhibition): 50 ppm/well, Czapek-dox broth, 25°C for 3 days, absorbance 600 nm; for rate of inhibition: Test Example F, speckled leaf blotch anti-germ test
[2] = tested on: Fusarium blight fungus (Fusarium graminearum); assay: Fusarium blight anti-germ test (Test Example D); conditions: for Fusarium blight anti-germ test (rate of inhibition): 50 ppm/well, Czapek-dox broth, 25°C for 3 days, absorbance 600 nm; for rate of inhibition: Test Example D, Fusarium blight anti-germ test
[3] = tested on: Gray mold fungus (Botrytis cinerea); assay: Gray mold anti-germ test (Test Example C); conditions: for Gray mold anti-germ test (rate of inhibition): 50 ppm/well, Czapek-dox broth, 25°C for 3 days, absorbance 600 nm; for rate of inhibition: Test Example C, gray mold anti-germ test
Botrytis cinerea = assay: Tomato gray mold pot test (Test Example B); conditions: for Tomato gray mold pot test (control value): 250 ppm sprayed, 2.5 ml/pot, tomato variety Oogata Fukuju, degree of disease development 2 to 3 days after inoculation; for control value: Test Example B, tomato gray mold pot test
Magnaporthe grisea = assay: Rice blast disease pot test (Test Example A); conditions: for Rice blast disease pot test (control value): 250 ppm sprayed, 2.5 ml/pot, rice variety Sachikaze, degree of disease development 6 to 8 days after inoculation; for control value: Test Example A, rice blast disease pot test
[4] = tested on: Anthracnose fungus (Glomerella cingulata); assay: Anthracnose anti-germ test (Test Example E); conditions: for Anthracnose anti-germ test (rate of inhibition): 50 ppm/well, Czapek-dox broth, 25°C for 3 days, absorbance 600 nm; for rate of inhibition: Test Example E, anthracnose anti-germ test

Cc1cccc2c1OC(C)(C)N=C2n1cnc2c(C)c(Br)ccc21
Speckled leaf blotch anti-germ test (rate of inhibition) [1]: L (L represents a control value or rate of inhibition of 50% or less)
Fusarium blight anti-germ test (rate of inhibition) [2]: L (L represents a control value or rate of inhibition of 50% or less)
Gray mold anti-germ test (rate of inhibition) [3]: L (L represents a control value or rate of inhibition of 50% or less)
Tomato gray mold pot test (control value) (Botrytis cinerea): L (L represents a control value or rate of inhibition of 50% or less)
Rice blast disease pot test (control value) (Magnaporthe grisea): H (H represents a control value or rate of inhibition of larger than 50%)
Anthracnose anti-germ test (rate of inhibition) [4]: H (H represents a control value or rate of inhibition of larger than 50%)

COc1cccc2c1OC(C)(C)N=C2n1cnc2c(OC)cccc21
Speckled leaf blotch anti-germ test (rate of inhibition) [1]: L (L represents a control value or rate of inhibition of 50% or less)
Fusarium blight anti-germ test (rate of inhibition) [2]: L (L represents a control value or rate of inhibition of 50% or less)
Gray mold anti-germ test (rate of inhibition) [3]: L (L represents a control value or rate of inhibition of 50% or less)
Tomato gray mold pot test (control value) (Botrytis cinerea): L (L represents a control value or rate of inhibition of 50% or less)
Rice blast disease pot test (control value) (Magnaporthe grisea): L (L represents a control value or rate of inhibition of 50% or less)
Anthracnose anti-germ test (rate of inhibition) [4]: L (L represents a control value or rate of inhibition of 50% or less)

Cc1cc2ncn(C3=NC(C)(C)Oc4ccccc43)c2cc1C
Speckled leaf blotch anti-germ test (rate of inhibition) [1]: H (H represents a control value or rate of inhibition of larger than 50%)
Fusarium blight anti-germ test (rate of inhibition) [2]: L (L represents a control value or rate of inhibition of 50% or less)
Gray mold anti-germ test (rate of inhibition) [3]: H (H represents a control value or rate of inhibition of larger than 50%)
Tomato gray mold pot test (control value) (Botrytis cinerea): H (H represents a control value or rate of inhibition of larger than 50%)
Rice blast disease pot test (control value) (Magnaporthe grisea): L (L represents a control value or rate of inhibition of 50% or less)
Anthracnose anti-germ test (rate of inhibition) [4]: H (H represents a control value or rate of inhibition of larger than 50%)

CNC(=O)CC1(C)N=C(n2cnc3c(C)c(C)ccc32)c2ccc(C)cc2O1 (stereo not drawn)
Speckled leaf blotch anti-germ test (rate of inhibition) [1]: L (L represents a control value or rate of inhibition of 50% or less)
Fusarium blight anti-germ test (rate of inhibition) [2]: H (H represents a control value or rate of inhibition of larger than 50%)
Gray mold anti-germ test (rate of inhibition) [3]: L (L represents a control value or rate of inhibition of 50% or less)
Tomato gray mold pot test (control value) (Botrytis cinerea): H (H represents a control value or rate of inhibition of larger than 50%)
Rice blast disease pot test (control value) (Magnaporthe grisea): L (L represents a control value or rate of inhibition of 50% or less)
Anthracnose anti-germ test (rate of inhibition) [4]: L (L represents a control value or rate of inhibition of 50% or less)

Cc1ccc2c(c1C)OC(C)(C)N=C2c1cnn2c(C)c(C)ccc12
Speckled leaf blotch anti-germ test (rate of inhibition) [1]: H (H represents a control value or rate of inhibition of larger than 50%)
Fusarium blight anti-germ test (rate of inhibition) [2]: H (H represents a control value or rate of inhibition of larger than 50%)
Gray mold anti-germ test (rate of inhibition) [3]: H (H represents a control value or rate of inhibition of larger than 50%)
Tomato gray mold pot test (control value) (Botrytis cinerea): H (H represents a control value or rate of inhibition of larger than 50%)
Rice blast disease pot test (control value) (Magnaporthe grisea): L (L represents a control value or rate of inhibition of 50% or less)
Anthracnose anti-germ test (rate of inhibition) [4]: H (H represents a control value or rate of inhibition of larger than 50%)

CNc1ccc2c(c1)OC(C)(C)N=C2n1cnc2c(C)c(C)ccc21
Speckled leaf blotch anti-germ test (rate of inhibition) [1]: H (H represents a control value or rate of inhibition of larger than 50%)
Fusarium blight anti-germ test (rate of inhibition) [2]: H (H represents a control value or rate of inhibition of larger than 50%)
Gray mold anti-germ test (rate of inhibition) [3]: H (H represents a control value or rate of inhibition of larger than 50%)
Tomato gray mold pot test (control value) (Botrytis cinerea): H (H represents a control value or rate of inhibition of larger than 50%)
Rice blast disease pot test (control value) (Magnaporthe grisea): H (H represents a control value or rate of inhibition of larger than 50%)
Anthracnose anti-germ test (rate of inhibition) [4]: H (H represents a control value or rate of inhibition of larger than 50%)

CCCC1(C)N=C(n2cnc3c(C)c(Br)cnc32)c2cccc(F)c2O1 (stereo not drawn)
rate of inhibition [1]: H (H represents a control value or rate of inhibition of larger than 50%)
rate of inhibition [2]: H (H represents a control value or rate of inhibition of larger than 50%)
rate of inhibition [3]: H (H represents a control value or rate of inhibition of larger than 50%)
control value (Botrytis cinerea): H (H represents a control value or rate of inhibition of larger than 50%)
control value (Magnaporthe grisea): H (H represents a control value or rate of inhibition of larger than 50%)
rate of inhibition [4]: H (H represents a control value or rate of inhibition of larger than 50%)

CCC1(C)N=C(c2cnn3c(C)c(C)ncc23)c2cccc(F)c2S1 (stereo not drawn)
rate of inhibition [1]: H (H represents a control value or rate of inhibition of larger than 50%)
rate of inhibition [2]: H (H represents a control value or rate of inhibition of larger than 50%)
rate of inhibition [3]: H (H represents a control value or rate of inhibition of larger than 50%)
control value (Botrytis cinerea): H (H represents a control value or rate of inhibition of larger than 50%)
control value (Magnaporthe grisea): H (H represents a control value or rate of inhibition of larger than 50%)
rate of inhibition [4]: H (H represents a control value or rate of inhibition of larger than 50%)

Cc1ccc2c(c1)OC(C)(C)N=C2n1cnc2c(C)c(C)ccc21 [56]
Speckled leaf blotch anti-germ test (rate of inhibition) [1]: H (H represents a control value or rate of inhibition of larger than 50%)
Fusarium blight anti-germ test (rate of inhibition) [2]: H (H represents a control value or rate of inhibition of larger than 50%)
Gray mold anti-germ test (rate of inhibition) [3]: H (H represents a control value or rate of inhibition of larger than 50%)
Tomato gray mold pot test (control value) (Botrytis cinerea): H (H represents a control value or rate of inhibition of larger than 50%)
Rice blast disease pot test (control value) (Magnaporthe grisea): H (H represents a control value or rate of inhibition of larger than 50%)
Anthracnose anti-germ test (rate of inhibition) [4]: H (H represents a control value or rate of inhibition of larger than 50%)

CCC1(C)N=C(n2cnc3c(C)c(C)ccc32)c2cccc(C)c2O1 (stereo not drawn)
Speckled leaf blotch anti-germ test (rate of inhibition) [1]: H (H represents a control value or rate of inhibition of larger than 50%)
Fusarium blight anti-germ test (rate of inhibition) [2]: H (H represents a control value or rate of inhibition of larger than 50%)
Gray mold anti-germ test (rate of inhibition) [3]: H (H represents a control value or rate of inhibition of larger than 50%)
Tomato gray mold pot test (control value) (Botrytis cinerea): H (H represents a control value or rate of inhibition of larger than 50%)
Rice blast disease pot test (control value) (Magnaporthe grisea): H (H represents a control value or rate of inhibition of larger than 50%)
Anthracnose anti-germ test (rate of inhibition) [4]: H (H represents a control value or rate of inhibition of larger than 50%)

CCOCC1(C)N=C(c2cnn3cccc(C)c23)c2ccccc2O1 (stereo not drawn)
rate of inhibition [1]: L (L represents a control value or rate of inhibition of 50% or less)
rate of inhibition [2]: L (L represents a control value or rate of inhibition of 50% or less)
rate of inhibition [3]: L (L represents a control value or rate of inhibition of 50% or less)
control value (Botrytis cinerea): L (L represents a control value or rate of inhibition of 50% or less)
control value (Magnaporthe grisea): H (H represents a control value or rate of inhibition of larger than 50%)
rate of inhibition [4]: H (H represents a control value or rate of inhibition of larger than 50%)

Cc1ccc2c(c1)OC(C)(C)N=C2n1cnc2c(Cl)cccc21
Speckled leaf blotch anti-germ test (rate of inhibition) [1]: H (H represents a control value or rate of inhibition of larger than 50%)
Fusarium blight anti-germ test (rate of inhibition) [2]: H (H represents a control value or rate of inhibition of larger than 50%)
Gray mold anti-germ test (rate of inhibition) [3]: H (H represents a control value or rate of inhibition of larger than 50%)
Tomato gray mold pot test (control value) (Botrytis cinerea): H (H represents a control value or rate of inhibition of larger than 50%)
Rice blast disease pot test (control value) (Magnaporthe grisea): H (H represents a control value or rate of inhibition of larger than 50%)
Anthracnose anti-germ test (rate of inhibition) [4]: H (H represents a control value or rate of inhibition of larger than 50%)

Cc1ccc2c(ncn2C2=NC(C)(C)Oc3cccc(F)c32)c1C
Speckled leaf blotch anti-germ test (rate of inhibition) [1]: L (L represents a control value or rate of inhibition of 50% or less)
Fusarium blight anti-germ test (rate of inhibition) [2]: H (H represents a control value or rate of inhibition of larger than 50%)
Gray mold anti-germ test (rate of inhibition) [3]: H (H represents a control value or rate of inhibition of larger than 50%)
Tomato gray mold pot test (control value) (Botrytis cinerea): H (H represents a control value or rate of inhibition of larger than 50%)
Rice blast disease pot test (control value) (Magnaporthe grisea): H (H represents a control value or rate of inhibition of larger than 50%)
Anthracnose anti-germ test (rate of inhibition) [4]: H (H represents a control value or rate of inhibition of larger than 50%)

COc1cccc2c1ncn2C1=NC(C)(C)Oc2c(Cl)cccc21
Speckled leaf blotch anti-germ test (rate of inhibition) [1]: L (L represents a control value or rate of inhibition of 50% or less)
Fusarium blight anti-germ test (rate of inhibition) [2]: H (H represents a control value or rate of inhibition of larger than 50%)
Gray mold anti-germ test (rate of inhibition) [3]: H (H represents a control value or rate of inhibition of larger than 50%)
Tomato gray mold pot test (control value) (Botrytis cinerea): L (L represents a control value or rate of inhibition of 50% or less)
Rice blast disease pot test (control value) (Magnaporthe grisea): L (L represents a control value or rate of inhibition of 50% or less)
Anthracnose anti-germ test (rate of inhibition) [4]: H (H represents a control value or rate of inhibition of larger than 50%)
